Compound potency records, mixed from different reports. Data source: NIAID ChemDB in PubChem.

All rows: growth or infection tests; organism: HIV-1; endpoint: EC50

a–b is a range or a potency band. Blank or dashed fields: not listed here. ECn is the concentration giving n% inhibition of infection, replication or growth. Neighbouring rows are from separate reports.

structure	strain or isolate	method	cell line	setting	changes	result
CC(C)N(C[C@H](O)[C@H](Cc1ccccc1)NC(=O)[C@H](CC(N)=O)NC(=O)c1ccc2ccccc2n1)NC(=O)C(C)(C)C	Clinical isolate strain 237228	cytopathic effect / RT activity / trypan blue	MT-2			<1 µM
Cc1nnc(-c2cccc(-c3cccc(C(=O)N4CCCCC4)c3)c2)o1	CNE8	luminescence	TZM-bl	pseudotyped		>30 µM
CCCc1cc(=O)oc2c3c(c4c(c12)OC(C)(C)CC4)O[C@@H](C)[C@H](C)[C@@H]3O	Thiazolobenzimidazole-resistant (RT V108I)	XTT	CEM + CEM-SS		RT-V108I	3.5 µM
CC(C)(C)OC(=O)N1CC2CCCCC2CN1C[C@H](O)[C@H](Cc1ccccc1)NC(=O)[C@H](CC#N)NC(=O)c1ccc2ccccc2n1	Clinical isolate strain 237228	cytopathic effect / RT activity / trypan blue	MT-2			<1 µM
Cc1cc(-c2ccc[n+]([O-])c2)ccc1OCCc1cnc2c(c1)C(=O)N(C)c1cccnc1N2C1CC1		p24	C8166		RT-K103N Y181C	0.01–0.05 µM
N#CC1(CNC(=O)c2c(O)c3ncc(Cc4ccc(F)cc4)c4c3n(c2=O)CC(F)(F)CN4)CC1	IIIB	ATP / luminescence	MT-2			0.0043 µM
CC1CC(C)CN(S(=O)(=O)c2ccccc2[N+](=O)[O-])C1	2AG	GFP / fluorescence	HeLa			9.44 µM
CNC(=O)c1c(O)c2ncc(Cc3ccc(F)cc3)c3c2n(c1=O)C[C@@](C)(C(=O)NC(C)(C)CO)O3	IIIB	ATP / luminescence	MT-2			0.0265 µM
CN(C(=O)[C@H](Cc1ccccc1)NC(=O)c1ccnc(N[C@@H](Cc2ccccc2)C(=O)N(C)c2ccc3scnc3c2)n1)c1ccc2scnc2c1	NL4-3	luciferase	MT-2			1.86 µM
CC1(C)CC=C(c2cn(-c3nccc(C(=O)NC4CCC(N5CC6CCC(C5)O6)CC4)n3)c3ccc(F)c([C@H](OC(C)(C)C)C(=O)O)c23)CC1	NL4-3	luminescence	MT-4		N222K	0.0052 µM
CCN(C)C(=O)C1=Cn2c(=O)c(C(=O)NCCOC)c(O)c3ncc(Cc4ccc(F)cc4)c(c32)O1	IIIB	ATP / luminescence	MT-2			0.0061 µM
COc1c(-c2cc(C)n(-c3ccccc3)n2)c(O)c(S(=O)(=O)Oc2ccc(F)cc2)c2occc12	RF	cytopathic effect / MTS	CEM-SS			0.000028 µM
CCN1c2ncc(CCOc3ccc(Nc4ccccn4)cc3C)cc2C(=O)N(C)c2cccnc21		p24	C8166		RT-K103N Y181C	<0.01 µM
Cc1ncnc(C)c1C(=O)N1C[C@H]2CN(CCC(c3ccccc3)C3CN(S(=O)(=O)C4CC4)C3)C[C@H]2C1		cell fusion				0.313 µM
Cc1nc2ccccc2c(-c2cc(F)c3c(c2C)CCCO3)c1[C@H](OC(C)(C)C)C(=O)O	NL4-3	luminescence	MT-4		T124S/T125A	0.028 µM
Cc1ncnc(C)c1C(=O)N1C[C@H]2CN(CCC(c3ccccc3)C3CN(S(=O)(=O)C(C)C)C3)C[C@H]2C1		cell fusion				0.093 µM
Cc1ccc(N(C)C(=O)[C@H](Cc2cc(F)cc(F)c2)NC(=O)c2ccc(F)c(C(=O)N[C@@H](Cc3cc(F)cc(F)c3)C(=O)N(C)c3ccc(C)nc3)c2)cn1	NL4-3	luciferase	MT-2			0.19 µM
Nc1ccn([C@H]2S[C@@H](CO)C=C2F)c(=O)n1	LAI	PCR	PBMC			<24.6 µM
CC(=O)c1c(C)nc(-c2ccccc2)nc1NC(=O)c1ccccc1	D-92UG046	GFP / fluorescence	HeLa			1 µM
CCN(CC)C(=O)[C@]1(C)Cn2c(=O)c(C(=O)NC)c(O)c3ncc(Cc4ccc(F)cc4)c(c32)O1	IIIB	ATP / luminescence	MT-2			0.0132 µM
Cc1noc(C)c1C(=O)NC(C)(C)C(=O)NC[C@H](O)[C@@]12CC[C@]3(C)[C@H](CC[C@@H]4[C@@]5(C)CC[C@H](OC(=O)[C@H]6C[C@@H](C(=O)O)C6(C)C)C(C)(C)[C@@H]5CC[C@]43C)C1=C(C(C)C)C(=O)C2	92HT599	p24 / ELISA	MT-2			<1 µM
CNC(=O)[C@H]1Cn2c(=O)c(C(=O)NCCO)c(O)c3ncc(Cc4ccc(F)cc4)c(c32)O1	IIIB	ATP / luminescence	MT-2			0.039 µM
CCN1c2ncc(CCOc3ccc(C(=O)Nc4nc(CC(=O)O)cs4)cc3C)cc2C(=O)N(C)c2cccnc21		p24	C8166		RT-K103N Y181C	>0.05 µM
CCCc1ccc(N(C)C(=O)[C@H](Cc2cc(F)cc(F)c2)NC(=O)NS(=O)(=O)N[C@@H](Cc2cc(F)cc(F)c2)C(=O)N(C)c2ccc(CCC)cc2)cc1	NL4-3	luciferase	MT-2			0.02 µM
Cc1cc(=O)oc(C)c1C(=O)N1C[C@H]2CN(CCC(c3ccccc3)C3CCN(S(C)(=O)=O)CC3)C[C@H]2C1		cell fusion				0.037 µM
COc1ccc(N(C)C(=O)C(Cc2ccccc2)NC(=O)Cc2ccc(CC(=O)N[C@@H](Cc3ccccc3)C(=O)N(C)c3ccc(OC)cc3)cc2)cc1	NL4-3	luciferase	MT-2			2.76 µM
Cc1ccc(C(=O)NC(C)(C)CNCC[C@@]23CC[C@]4(C)[C@H](CC[C@@H]5[C@@]6(C)CC[C@H](OC(=O)[C@H]7C[C@@H](C(=O)O)C7(C)C)C(C)(C)[C@@H]6CC[C@]54C)C2=C(C(C)C)C(=O)C3)cn1	92HT599	p24 / ELISA	MT-2			<1 µM
COc1c(C(=O)/C=C(/C)Nc2ccc(F)cc2)c(O)c(S(=O)(=O)Oc2ccc(F)cc2)c2occc12	RF	cytopathic effect / MTS	CEM-SS			0.000059 µM
CC(C)C1=C2[C@H]3CC[C@@H]4[C@@]5(C)CC[C@H](OC(=O)[C@H]6C[C@@H](C(=O)O)C6(C)C)C(C)(C)[C@@H]5CC[C@@]4(C)[C@]3(C)CC[C@@]2(CCNCC(C)(C)NC(=O)CN2CCOCC2)CC1=O	92HT599	p24 / ELISA	MT-2			<1 µM
Cc1ccc(N(C)C(=O)[C@H](Cc2cc(F)cc(F)c2)NC(=O)CN2c3ccccc3N(CC(=O)N[C@@H](Cc3cc(F)cc(F)c3)C(=O)N(C)c3ccc(C)nc3)S2(=O)=O)cn1	NL4-3	luciferase	MT-2			0.02 µM
COc1c2ccoc2c(S(=O)(=O)OC2CCCCC2)c2oc(C)cc(=O)c12	RF	cytopathic effect / MTS	CEM-SS			0.000089 µM
CC(C)(C)OC(=O)N1CC2CCCCC2CN1CC(O)[C@H](Cc1ccccc1)NC(=O)[C@H](CC(N)=O)NC(=O)c1ccc2ccccc2n1	Clinical isolate strain 237228	cytopathic effect / RT activity / trypan blue	MT-2			<0.1 µM
COCCNC(=O)c1c(O)c2ncc(Cc3ccc(F)cc3)c3c2n(c1=O)C[C@H](CN1CCOCC1(C)C)O3	IIIB	ATP / luminescence	MT-2			0.0089 µM
COc1ccc(N(C)C(=O)[C@H](Cc2ccccc2)NC(=O)Cc2cccc(CC(=O)N[C@@H](Cc3ccccc3)C(=O)N(C)c3ccc(OC)cc3)c2)cc1	NL4-3	luciferase	MT-2			0.85 µM
COc1c(C(=O)/C=C(/C)Nc2ccccc2)c(O)c(S(=O)(=O)OC2CCCC2)c2occc12	RF	cytopathic effect / MTS	CEM-SS			0.000066 µM
CCN1c2ncc(CCOc3ccc(C(=O)N=c4ccccn4O)cc3C)cc2C(=O)Nc2c(C)ccnc21	IIIB	p24	C8166			<0.01 µM
COc1cccc2[nH]cc(C(=O)C(=O)N3CCN(C(=O)c4ccccc4)C[C@H]3C)c12	SF2	virus yield	MT-2/CXCR4			0.0265 µM
COc1ccc(N(C)C(=O)[C@H](Cc2cc(F)cc(F)c2)NC(=O)CS(=O)(=O)N[C@@H](Cc2cc(F)cc(F)c2)C(=O)N(C)c2ccc(OC)cc2)cc1	NL4-3	luciferase	MT-2			0.38 µM
CCN1c2ncc(CCOc3ccc(C(=O)NC(C)(C)CC(=O)O)cc3C)cc2C(=O)N(C)c2cccnc21	IIIB	p24	C8166			<0.01 µM
CCC(=O)N1CCC(C(CCN2C[C@@H]3CN(C(=O)c4c(C)ncnc4C)C[C@@H]3C2)c2ccccc2)CC1		cell fusion				>5 µM
COc1ccc(OS(=O)(=O)c2c3occc3c(OC)c3c(=O)cc(C)oc23)cc1	RF	cytopathic effect / MTS	CEM-SS			0.000077 µM
Nc1ccn([C@H]2CC[C@@H](CO)O2)c(=O)n1	NL4-3	β-galactosidase			D36G	0.392 µM
CC(C)C1=C2[C@H]3CC[C@@H]4[C@@]5(C)CC[C@H](OC(=O)[C@H]6C[C@@H](C(=O)O)C6(C)C)C(C)(C)[C@@H]5CC[C@@]4(C)[C@]3(C)CC[C@@]2([C@@H](O)CNCC2(NC(=O)c3ccc(Cl)cc3)CC2)CC1=O	92HT599	p24 / ELISA	MT-2			<1 µM
O=C(NCCCn1cccn1)c1c(O)c2ncc(Cc3ccc(F)cc3)c3c2n(c1=O)CC(F)(F)CN3	IIIB	ATP / luminescence	MT-2			0.003 µM
CCC(=O)c1ccc(F)c([C@@H]2C[C@@H]2NC(=O)Nc2ccc(C#N)cn2)c1O	LAI	β-galactosidase / luminescence	TZM-bl		NNRTI-resistant (RT K103N/Y181C)	0.182 µM
COc1ccc(N(C)C(=O)[C@H](Cc2ccccc2)NC(=O)c2cc(C)cc(C(=O)N[C@@H](Cc3ccccc3)C(=O)N(C)c3ccc(OC)cc3)c2)cc1	NL4-3	luciferase	MT-2			0.05 µM
Cc1ncnc(C)c1C(=O)N1C[C@H]2CN(CCC(c3cc(F)cc(F)c3)C3CCN(CC(F)F)CC3)C[C@H]2C1		cell fusion				0.019 µM
CC(C)C1=C2[C@H]3CC[C@@H]4[C@@]5(C)CC[C@H](OC(=O)[C@H]6C[C@@H](C(=O)O)C6(C)C)C(C)(C)[C@@H]5CC[C@@]4(C)[C@]3(C)CC[C@@]2(CC(=O)NCC2(NC(=O)c3ccc(Cl)cc3)CCC2)CC1=O	92HT599	p24 / ELISA	MT-2			<1 µM
Cc1ncnc(C)c1C(=O)N1C[C@H]2CN(CCC(c3ccccc3)C3CCN(S(=O)(=O)C(C)C)CC3)C[C@H]2C1		cell fusion				0.099 µM
CC(C)[C@H](NC(=O)OCc1ccccn1)C(=O)N[C@@H](Cc1ccccc1)C(O)CN1CC2CCCCC2CN1C(=O)OC(C)(C)C	Clinical isolate strain 237228	cytopathic effect / RT activity / trypan blue	MT-2			<1 µM
CCN1c2ncc(CCOc3ccc(-c4cccnc4)cc3C)cc2C(=O)N(C)c2cccnc21		p24	C8166		RT-K103N Y181C	<0.01 µM
CC(C)C1=C2[C@H]3CC[C@@H]4[C@@]5(C)CC[C@H](OC(=O)[C@H]6C[C@@H](C(=O)O)C6(C)C)C(C)(C)[C@@H]5CC[C@@]4(C)[C@]3(C)CC[C@@]2([C@@H](O)CNCC2CCC2)CC1=O	92HT599	p24 / ELISA	MT-2			<1 µM
N=C1Sc2ccccc2C2=NCCCN12	96USNG31	β-galactosidase	PBMC			0.14 µM
COc1c(C(=O)/C=C(/C)Nc2ccc(Cl)cc2)c(O)c(S(=O)(=O)OC2CCCCC2)c2occc12	RF	cytopathic effect / MTS	CEM-SS			0.000068 µM
CCCc1cc(=O)oc2c3c(c4c(c12)OC(C)(C)CC4)O[C@H](C)[C@@H](C)C3=O		cytopathic effect / XTT			RT-M184I	6.47 µM
[2H]C([2H])([2H])NC(=O)c1c(O)c2ncc(Cc3ccc(F)cc3)c3c2n(c1=O)C[C@H](CN1CCN(S(C)(=O)=O)CC1)O3	IIIB	ATP / luminescence	MT-2			0.0053 µM
CN(C(=O)[C@H](Cc1cc(F)cc(F)c1)NC(=O)N[C@@H](Cc1cc(F)cc(F)c1)C(=O)N(C)c1ccc2scnc2c1)c1ccc2scnc2c1	NL4-3	luciferase	MT-2			0.52 µM
CC(C)CN(C[C@@H](O)[C@H](Cc1ccccc1)NC(=O)O[C@H]1CCOC1)S(=O)(=O)c1ccc(N)cc1	T14434	reporter gene	MT-4		R41T K70E V77I/V	47 nM

Again, the opening 4 rows:

structure,strain or isolate,method,cell line,setting,changes,result
CC(C)N(C[C@H](O)[C@H](Cc1ccccc1)NC(=O)[C@H](CC(N)=O)NC(=O)c1ccc2ccccc2n1)NC(=O)C(C)(C)C,Clinical isolate strain 237228,cytopathic effect / RT activity / trypan blue,MT-2,,,<1 µM
Cc1nnc(-c2cccc(-c3cccc(C(=O)N4CCCCC4)c3)c2)o1,CNE8,luminescence,TZM-bl,pseudotyped,,>30 µM
CCCc1cc(=O)oc2c3c(c4c(c12)OC(C)(C)CC4)O[C@@H](C)[C@H](C)[C@@H]3O,Thiazolobenzimidazole-resistant (RT V108I),XTT,CEM + CEM-SS,,RT-V108I,3.5 µM
CC(C)(C)OC(=O)N1CC2CCCCC2CN1C[C@H](O)[C@H](Cc1ccccc1)NC(=O)[C@H](CC#N)NC(=O)c1ccc2ccccc2n1,Clinical isolate strain 237228,cytopathic effect / RT activity / trypan blue,MT-2,,,<1 µM